Tests used:
Assay in all cases: MIC, broth microdilution
Salmonella spp. GC 235 = system: Salmonella spp. GC 235
S. cholerasius GC 1355 = system: S. cholerasius GC 1355
Salmonella spp. GC 566 = system: Salmonella spp. GC 566

Row | Structure (SMILES) | MINIMAL INHIBITORY CONCENTRATION MIC (Salmonella spp. GC 235; pre-incubated in Human Serum) [UG/ML] | MINIMAL INHIBITORY CONCENTRATION MIC (Salmonella spp. GC 235; pre-incubated in Mouse Serum) [UG/ML] | MINIMAL INHIBITORY CONCENTRATION MIC (Salmonella spp. GC 235; pre-incubated in Water) [UG/ML] | MINIMAL INHIBITORY CONCENTRATION MIC (S. cholerasius GC 1355; pre-incubated in Human Serum) [UG/ML] | MINIMAL INHIBITORY CONCENTRATION MIC (S. cholerasius GC 1355; pre-incubated in Mouse Serum) [UG/ML] | MINIMAL INHIBITORY CONCENTRATION MIC (S. cholerasius GC 1355; pre-incubated in Water) [UG/ML] | MINIMAL INHIBITORY CONCENTRATION MIC (Salmonella spp. GC 566; pre-incubated in Human Serum) [UG/ML] | MINIMAL INHIBITORY CONCENTRATION MIC (Salmonella spp. GC 566; pre-incubated in Mouse Serum) [UG/ML] | MINIMAL INHIBITORY CONCENTRATION MIC (Salmonella spp. GC 566; pre-incubated in Water) [UG/ML] | MINIMAL INHIBITORY CONCENTRATION MIC (Salmonella spp. GC 235; Human Serum) [UG/ML] | MINIMAL INHIBITORY CONCENTRATION MIC (Salmonella spp. GC 235; Mouse Serum) [UG/ML] | MINIMAL INHIBITORY CONCENTRATION MIC (Salmonella spp. GC 235; Water) [UG/ML] | MINIMAL INHIBITORY CONCENTRATION MIC (S. cholerasius GC 1355; Human Serum) [UG/ML] | MINIMAL INHIBITORY CONCENTRATION MIC (S. cholerasius GC 1355; Mouse Serum) [UG/ML] | MINIMAL INHIBITORY CONCENTRATION MIC (S. cholerasius GC 1355; Water) [UG/ML] | MINIMAL INHIBITORY CONCENTRATION MIC (Salmonella spp. GC 566; Human Serum) [UG/ML] | MINIMAL INHIBITORY CONCENTRATION MIC (Salmonella spp. GC 566; Mouse Serum) [UG/ML] | MINIMAL INHIBITORY CONCENTRATION MIC (Salmonella spp. GC 566; Water) [UG/ML]
1 | CC(C)C(=O)OCOC(=O)N(CC(=O)Nc1cc(N(C)C)c2c(c1O)C(=O)C1=C(O)[C@]3(O)C(=O)C(C(N)=O)=C(O)[C@@H](N(C)C)[C@@H]3C[C@@H]1C2)C(C)(C)C [Example 45, ({[(2-{[(5aR,6aS,7S,10aS)-9-(aminocarbonyl)-4,7-bis(dimethylamino)-1,8,10a,11-tetrahydroxy-10,12-dioxo-5,5a,6,6a,7,10,10a,12-octahydrotetracen-2-yl]amino}-2-oxoethyl)(tert-butyl)amino]carbonyl}oxy)methyl 2-methylpropanoate] | 8 | 1 | >64 | 32 | 4 | >64 | 32 | 2 | >64 |  |  |  |  |  |  |  |  | 
2 | CN(C)c1cc(NC(=O)CN(C(=O)OCOC(=O)C2CCCC2)C(C)(C)C)c(O)c2c1C[C@H]1C[C@H]3[C@H](N(C)C)C(O)=C(C(N)=O)C(=O)[C@@]3(O)C(O)=C1C2=O [Example 46, ({[(2-{[(5aR,6aS,7S,10aS)-9-(aminocarbonyl)-4,7-bis(dimethylamino)-1,8,10a,11-tetrahydroxy-10,12-dioxo-5,5a,6,6a,7,10,10a,12-octahydrotetracen-2-yl]amino}-2-oxoethyl)(tert-butyl)amino]carbonyl}oxy)methyl cyclopentanecarboxylate] | 16 | 1 | >64 | 32 | 2 | >64 | 16 | 2 | >64 |  |  |  |  |  |  |  |  | 
3 | Cc1ccc(C(=O)OCOC(=O)N(CC(=O)Nc2cc(N(C)C)c3c(c2O)C(=O)C2=C(O)[C@]4(O)C(=O)C(C(N)=O)=C(O)[C@@H](N(C)C)[C@@H]4C[C@@H]2C3)C(C)(C)C)cc1 [Example 47] | 64 | 2 | >64 | >64 | 4 | >64 | >64 | 4 | >64 |  |  |  |  |  |  |  |  | 
4 | CCCCCCC(=O)OCOC(=O)N(CC(=O)Nc1cc(N(C)C)c2c(c1O)C(=O)C1=C(O)[C@]3(O)C(=O)C(C(N)=O)=C(O)[C@@H](N(C)C)[C@@H]3C[C@@H]1C2)C(C)(C)C [Example 48, ({[(2-{[(5aR,6aS,7S,10aS)-9-(aminocarbonyl)-4,7-bis(dimethylamino)-1,8,10a,11-tetrahydroxy-10,12-dioxo-5,5a,6,6a,7,10,10a,12-octahydrotetracen-2-yl]amino}-2-oxoethyl)(tert-butyl)amino]carbonyl}oxy)methyl heptanoate] |  |  |  |  |  |  |  |  |  | 32 | 0.50 | >64 | >64 | 4 | >64 | >64 | 2 | >64
5 | CCC(=O)OCOC(=O)N(CC(=O)Nc1cc(N(C)C)c2c(c1O)C(=O)C1=C(O)[C@]3(O)C(=O)C(C(N)=O)=C(O)[C@@H](N(C)C)[C@@H]3C[C@@H]1C2)C(C)(C)C [Example 49, ({[(2-{[(5aR,6aS,7S,10aS)-9-(aminocarbonyl)-4,7-bis(dimethylamino)-1,8,10a,11-tetrahydroxy-10,12-dioxo-5,5a,6,6a,7,10,10a,12-octahydrotetracen-2-yl]amino}-2-oxoethyl)(tert-butyl)amino]carbonyl}oxy)methyl propionate] |  |  |  |  |  |  |  |  |  | 16 | 1 | 32 | 64 | 4 | >64 | 32 | 2 | 64
